Data taken from the supplement of paper PMC9931576.
Substitutions are numbered along the chain they refer to. Human monoclonal antibodies against the spike receptor-binding domain (heavy:light variable regions). IC50 against pseudoviruses bearing the spike of naturally observed variants; lower = stronger; >10 µg/ml means not reached at the top dose. No active / inactive call. The stated detection limit is 0.0005 µg/ml; values near or below 0.001 µg/ml lie at the floor of the assay.

B1: BD55-5545 (protein)
chain 1: QVQLQQWGAGLLKPSETLSLTCAVSGGSLSGYYWGWIRQSPGKGLQWIGEINHGGTTSYNPSLKSRVTISLDTSKTQFSLTVSSVTAADTAVYYCARIAPRKDRVESGWYWGFDYWGQGTLVTVSS
chain 2: DIEMTQSPDSLAVSLGERATINCKPSQSVSYSSDIKNYLAWYQQKPGQPPKLLIYWASTRESGVPDRFSGSGSGTDFSLTISSLQAEDVAVYYCQQYYSPPITFGQGTRLEIK
B2: BD55-1073 (protein)
chain 1: QVQLVQSGAEVKKPGASVKVSCKASGYTFTSDYIHWVRQAPGQGLEWVGMINPNGAGTDYAQKFQGRVTMTRDRSTNTVYMEFSSLKSDDTAVYFCASLHSNFGVMLIPNDAFDIWGQGTVLTVSS
chain 2: QSVLTQPPSVSAAPGQKVTISCSGSSSNIGNNFVSWYRQLPGTVPKLLIYDNDKRPSGIPDRFSGSKSGTSATLGITGLQTGDEADYYCATWDSSPSSPFVFGTGTKVTVL
B3: BD55-5557 (protein)
chain 1: QVQLVESGGGVVQPGRSLRLSCAASGFTFRSYAMHWVRQAPGKGLEWVAVIWHDGSNKYYADSVKGRFTISRDNSENTLYLQMNSLRAEDTAVYYCARATHSYCGGECYFPDGYWGQGTLVTVSS
chain 2: DILMTQSPSTLSASVGDRVTITCRASQSISSWLAWYQQKPGKAPKLLIYQASSLESGVPSRFSGSGSGTEFTLTISSLQPDDFATYYCQQYNSYWTFGQGTKVEIK
B4: BD55-5543 (protein)
chain 1: EVQLLESGGGLVQPGGSLRLSCAASGFTFSNFAMHWVRQAPGKGLEWVSAFSSSSGSHSYYADSVKGRFTISRDNSKNTLYLQMNSLRAEDTAIYYCAKPQNREWFGELFPFDFWGPGTLVTVSS
chain 2: DIVMTQSPDSLAVSLGERATIHCKSSQSLLFTSNNKNYLAWYQHRPGQPPKLLLYWASTRESGVPDRFSGSGSGTDFTLTISSLQAEDVAVYYCQQYYSSLYTFGQGTKLEIK
B5: BD55-5542 (protein)
chain 1: QVQLVQSGAEVKKPGSSVKVSCKASGGTFTSYAISWVRQAPGQGLEWMGGIIPFFNISNYAQKFQGRVTITADKSTSTAYMELSSLRSEDTAVYYCARERGEGVPAPTVTYWFDPWGQGTLVTVSS
chain 2: DIVMTQTPDSLAVSLGERATINCKSSQSVLYSSNNKNYLSWYQQKPGQPPKVLIYWASIRESGVPDRFSGSGSGTDFTLTISSLQAEDVAVYYCQQYYSNPLTFGGGTKVEIK
B6: BD55-5565 (protein)
chain 1: QVHLVQSGSDLKKPGASVKVSCKASGYTFTNYAINWVRQAPGQGLKWMGWINPDTGIPTYAQGFTGRFVFSFDTSVNTAYLQIRSLKTEDTAVYYCARDANQWPRNQWFAPWGQGTLVTVSS
chain 2: DIVMTQSPDSLAVSLGERATINCKSSHSLLSSPSNKNDLAWYQQKPGQPPKLLIYWASTRESGVPDRFSGSGAGTDFTLTISSLQPEDVAVYYCQQYYSTPLTFGGGTKVEIK
B7: BD55-5530 (protein)
chain 1: QVQLVQSGSELKKPGASVRVSCKASGYTFTTYSIKWVRQAPGQGLEWMGWINTNTGTPTSAQGLTGRFVFSVDTSVSTAYLQISSLKTEDTAVYYCARVFCSGGSCYDVDLWGQGTLVTVSS
chain 2: QSVLTQPPSASGTPGQRVIISCSGSISNIGSNFVYWYQQLPGTAPKVLIYRNIHRPSGVPDRFSGSKSGTSASLAISGLRSEDEADYYCAAWDDGLSGRLFGGGTKLTVL
B8: BD55-5580 (protein)
chain 1: QVQLVQSGAEVKKPGASVKVSCKASGFNFTIYSISWVRQAPGQGLEWMGRIGAYNGDTNYAQKVQGRVTMTTDTFTNTAYMELRGLTSDDTAVFYCAREYCTSYGCYDLDSWGQGTLVTVSS
chain 2: B7 chain 2 with I19T, L40F, V47L, N52S, I53N, H54Q, G95I, S97T, L100V
B9: BD55-5583 (protein)
chain 1: QVQLVQSGAEVKKPGASVKLSCKGSGYIFSNYGINWVRQTPGQGLEWMGWIGANNRNTDSAQKLQDRLTFTTDTSASTAYMELRSLTSDDTAVYYCARGAHYWGPEDAFDVWGQGTMVTVSS
chain 2: DVVLTQSPLSLPVTLGQPASISCRSSQSVVYSDGDTYLNWFQQRPGQSPRRLIYKVSNRDSGVPDRFSGSGSGTDFTLKISRVEAEDVGVYYCMQGTNWPRTFGQGTKVEIK
B10: BD55-5581 (protein)
chain 1: QVQLVQSGPEVKKPGASVKVSCKASGYAFTSQYIHWVRLAPGQGLQWMGIINPGAGSTTYAQSFRGRVTMTSDTSTSTVYLELSSLRNEDTAVYYCARDRVFVPAASDLDYWGQGTLVTVSS
chain 2: EIVLTQSPATLSLSPGERATLSCRASQSVGTYLAWYQQKPGQAPRLLIYDASNRATGVPARFSGSGSGTDFTLTISSLEPEDFAVYYCQQRSHWPPTWTFGQGTKVEIK
B11: BD55-5577 (protein)
chain 1: EVQLVESGGGLVQPGGSLRLSCAASGFTFSKYWMSWVRQAPGRGLEWVANIKEDGSEKNYVDSVKGRFTISRDNAKNSLYLHMNSLRVEDTAVYYCARAPVFYEILTPEYFDTWGQGTLVTVSS
chain 2: SYELTQPPSVSVSPGQTARITCSGDALPTQYTYWYQQKPGQAPMLVIYKDSERPSGIPERFSGSNSGKTVTLTISGVQAEDEADYYCQSADSRSWVFGGGTKLTVL
B12: BD55-1070 (protein)
chain 1: EVQLVESGGALVQPGGSLKLSCAASGFTFTEEDMHWVRQTTGKGLEWVSGAGTSGDTYYLDSVKGRFTISREDAKNSLSLQMSSLRAEDTAIYYCVRGDSSGLYYFFDLWGHGTLVTVSS
chain 2: DIQMTQSPSSLSASVGDRVTITCRASQTITKYLNWYQVKPGKPPKLLIYAASKLQSGVPSRFSGSGSGTDFTLTIGSLQADDFATYYCQQSYSSPPWTFGPGTKVEIK

These binders were tested against SARS-CoV-2 Omicron BA.1 spike pseudovirus (assay: pseudovirus neutralization IC50; higher = weaker neutralization).
Experimental: (§1)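 Single-round VSV luciferase pseudovirus mixed with antibody dilutions for 1 h and put on Huh-7 cells for about a day; IC50 from the dose curve.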

Row | Binder | pseudovirus neutralization IC50
1 | B1 | 8.16 µg/mL
2 | B2 | 0.81 µg/mL
3 | B3 | 6.04 µg/mL
4 | B4 | > 10 µg/mL
5 | B5 | > 10 µg/mL
6 | B6 | > 10 µg/mL
7 | B7 | > 10 µg/mL
8 | B8 | > 10 µg/mL
9 | B9 | 1.27 µg/mL
10 | B10 | > 10 µg/mL
11 | B11 | > 10 µg/mL
12 | B12 | > 10 µg/mL

These binders were tested against SARS-CoV-2 Omicron BA.2 spike pseudovirus in the same assay as above.
Experimental: as §1

Row | Binder | pseudovirus neutralization IC50
13 | B1 | 8.32 µg/mL
14 | B2 | 0.933 µg/mL
15 | B3 | 8.53 µg/mL
16 | B4 | > 10 µg/mL
17 | B5 | > 10 µg/mL
18 | B6 | > 10 µg/mL
19 | B7 | > 10 µg/mL
20 | B8 | > 10 µg/mL
21 | B9 | 1.66 µg/mL
22 | B10 | > 10 µg/mL
23 | B11 | > 10 µg/mL
24 | B12 | > 10 µg/mL

What follows are binders tested against SARS-CoV-2 Omicron BA.2.75 spike pseudovirus in the same assay as above.
Experimental: as §1

Row | Binder | pseudovirus neutralization IC50
25 | B1 | 8.01 µg/mL
26 | B2 | 0.75 µg/mL
27 | B3 | 5.47 µg/mL
28 | B4 | > 10 µg/mL
29 | B5 | > 10 µg/mL
30 | B6 | > 10 µg/mL
31 | B7 | > 10 µg/mL
32 | B8 | > 10 µg/mL
33 | B9 | 1.04 µg/mL
34 | B10 | > 10 µg/mL
35 | B11 | > 10 µg/mL
36 | B12 | > 10 µg/mL

Each binder was assayed against SARS-CoV-2 Omicron BA.5 spike pseudovirus in the same assay as above.
Experimental: as §1

Row | Binder | pseudovirus neutralization IC50
37 | B1 | 6.86 µg/mL
38 | B2 | > 10 µg/mL
39 | B3 | 6.18 µg/mL
40 | B4 | > 10 µg/mL
41 | B5 | > 10 µg/mL
42 | B6 | > 10 µg/mL
43 | B7 | > 10 µg/mL
44 | B8 | > 10 µg/mL
45 | B9 | 1.47 µg/mL
46 | B10 | > 10 µg/mL
47 | B11 | > 10 µg/mL
48 | B12 | > 10 µg/mL

What follows are binders tested against SARS-CoV-2 Omicron BQ.1.1 spike pseudovirus in the same assay as above.
Experimental: as §1

Row | Binder | pseudovirus neutralization IC50
49 | B1 | > 10 µg/mL
50 | B2 | > 10 µg/mL
51 | B3 | 4.41 µg/mL
52 | B4 | > 10 µg/mL
53 | B5 | > 10 µg/mL
54 | B6 | > 10 µg/mL
55 | B7 | > 10 µg/mL
56 | B8 | > 10 µg/mL
57 | B9 | 2.02 µg/mL
58 | B10 | > 10 µg/mL
59 | B11 | > 10 µg/mL
60 | B12 | > 10 µg/mL

What follows are binders tested against SARS-CoV-2 Omicron XBB spike pseudovirus in the same assay as above.
Experimental: as §1

Row | Binder | pseudovirus neutralization IC50
61 | B1 | > 10 µg/mL
62 | B2 | > 10 µg/mL
63 | B3 | > 10 µg/mL
64 | B4 | > 10 µg/mL
65 | B5 | > 10 µg/mL
66 | B6 | > 10 µg/mL
67 | B7 | > 10 µg/mL
68 | B8 | > 10 µg/mL
69 | B9 | 2.09 µg/mL
70 | B10 | > 10 µg/mL
71 | B11 | > 10 µg/mL
72 | B12 | > 10 µg/mL

These binders were tested against SARS-CoV-2 early D614G spike pseudovirus in the same assay as above.
Experimental: as §1

Row | Binder | pseudovirus neutralization IC50
73 | B1 | 1.21 µg/mL
74 | B2 | 0.0157 µg/mL
75 | B3 | 1.58 µg/mL
76 | B4 | 0.0852 µg/mL
77 | B5 | 0.517 µg/mL
78 | B6 | 0.108 µg/mL
79 | B7 | 0.00172 µg/mL
80 | B8 | 0.0361 µg/mL
81 | B9 | 0.125 µg/mL
82 | B10 | > 10 µg/mL
83 | B11 | > 10 µg/mL
84 | B12 | > 10 µg/mL
